Test results taken from the supplement of paper PMC9931576.
Human monoclonal antibodies against the spike receptor-binding domain (heavy:light variable regions). IC50 against pseudoviruses bearing the spike of naturally observed variants; lower = stronger; >10 µg/ml means not reached at the top dose. No active / inactive call. The stated detection limit is 0.0005 µg/ml; values near or below 0.001 µg/ml lie at the floor of the assay.

Legend:
Assay in all cases: pseudovirus neutralization IC50; higher = weaker neutralization
[1] = target: SARS-CoV-2 Omicron BA.1 spike pseudovirus
Experimental: (§1)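 Single-round VSV luciferase pseudovirus mixed with antibody dilutions for 1 h and put on Huh-7 cells for about a day; IC50 from the dose curve.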

[2] = target: SARS-CoV-2 Omicron BA.2 spike pseudovirus
Experimental: as §1

[3] = target: SARS-CoV-2 Omicron BA.2.75 spike pseudovirus
Experimental: as §1

[4] = target: SARS-CoV-2 Omicron BA.5 spike pseudovirus
Experimental: as §1

[5] = target: SARS-CoV-2 Omicron BQ.1.1 spike pseudovirus
Experimental: as §1

[6] = target: SARS-CoV-2 Omicron XBB spike pseudovirus
Experimental: as §1

[7] = target: SARS-CoV-2 early D614G spike pseudovirus
Experimental: as §1

| Binder | pseudovirus neutralization IC50 [1] [µg/mL] | pseudovirus neutralization IC50 [2] [µg/mL] | pseudovirus neutralization IC50 [3] [µg/mL] | pseudovirus neutralization IC50 [4] [µg/mL] | pseudovirus neutralization IC50 [5] [µg/mL] | pseudovirus neutralization IC50 [6] [µg/mL] | pseudovirus neutralization IC50 [7] [µg/mL] |
| --- | --- | --- | --- | --- | --- | --- | --- |
| BD56-1653 (protein) chain 1: EVQLLESGGGLVQPGGSLGLSCAASGFRFSSYAMSWVRQAPGKGLEWLSVIYSGGAGTYYADSVKGRFTISRDDSKNTLFVQMNSLRAEDTAVYYCARHKAVVGTYYYYSMDVWGQGTSVTVSS chain 2: SYVLTQPPSVSVAPGQTARFTCGGNNIGLNSVHWYQQKSGQAPVLVVYDDSDRPSGIPERFSGSNSGNTATLTINRVEAGDEADYYCQVWDGRSDHVVFGGGTKLTVL | > 10 | > 10 | > 10 | > 10 | > 10 | > 10 | > 10 |
| BD56-1656 (protein) chain 1: QVQLVESGGGVVQPGRSLRLSCVASGFTFRTYGMHWVRQAPGKGLEWVASIWYDGSNEDYADSAKGRFTVSRDNPNHTLFLQLNSLRVEDTAIYYCAKDPNPYASGWFSFHFDYWGQGSLVTVSS chain 2: QSVLTQPPSVSGAPGQRVTISCTGSSSNIGASYDVHWYQQLPGTAPKLLIYDNSNRPSGVPDRFSGSKSDTSASLAITGLQAEDEADYYCQSYDTSLGRVFGGGTKLTVL | > 10 | > 10 | > 10 | > 10 | > 10 | > 10 | > 10 |
| BD56-1660 (protein) chain 1: QVQLVESGGGVVQPGRSLRLSCAASGFTFNSYVMHWVRQAPGKGLEWVALISYDGSNKYYADSVKGRFTISRDNFKHTLYLQMNSLRAEDTAVYYCAREFDVDSGMVNNDAYGLDVWGQGTTVTVSS chain 2: DIQMTQSPSSLSASVGDRVTITCRASQSISSYLNWYQQKPGKAPKLLIYFALSLQSGVPSRFSGSGSGTDFTLTISSLQPDDLATYYCQQSYSTPPLTFGGGTKVEIK | > 10 | > 10 | > 10 | > 10 | > 10 | > 10 | 4.94 |
| BD56-1661 (protein) chain 1: EVQLVESGGGLVQPGRSLRLSCAASGFPFDDYAMHWVRQAPGKGLEWVSGISWNGGVIGYADSVKGRCIISRDNAKNSLYLHMNSLRAEDTALFYCVKDMSGGDYQHYFDHWGQGTLVTVSS chain 2: SYVLTQPPSVSVAPGKTARITCGGNYIGSKSVHWYQQRPGQAPVLVVYDDSDRPSGIPERLSGSKSGNTATLTISRVEAGDEADYYCQMWDSSSDLYVFGTGTKVTVL | 0.00911 | 0.00793 | 0.00342 | 0.179 | > 10 | 4.38 | 0.0387 |
| BD56-1662 (protein) chain 1: EQMQVEQSGPEVKKPGTSVKVSCKASGFTFPISSVQWLRQARGQHLEWIGWIVIGTGDTNYAQNFKERVTIIADMSSGTVYMELSSLRSEDTAVYYCAAPSCNRTLCFDGFDLWGQGTMVSVSS chain 2: EIVLTQSPGTLSLSPGERATLSCRASQSVSSSYLAWYQQRLGQAPRLLIYGASSRATGIPDRFSGGGSGTDFTLTISRLEPEDFAVYHCQQYSNSPWTFGRGTKVEIK | 0.000415 | 0.000749 | 0.00127 | 0.0266 | 0.26 | > 10 | 0.00176 |
| BD56-1663 (protein) chain 1: QVQLVQSGAEVKKPGSSVRVSCKASGGTFSSFPISWVRQAPGQGLEWMGRIIPILGVPNYAQRFQGRVTITADKSTSTAYMELSSLTSADTAVYYCARARGYSGSGSSYYFDYWGQGTLVTVSS chain 2: QSVLTQPPSVSGAPGQRVTISCTGSDSNIGAGYDVHWYQQLPGTAPKLLMYANTNRPSGVPARFSGSKSGTSASLAITGLQAEDEADYYCQSYDSSLSDSVFGGGTKLTVL | 0.0346 | 0.0203 | 0.011 | 0.928 | > 10 | 4.06 | 0.315 |
| BD56-1664 (protein) chain 1: QVQLVESGGGVVQPGRSLRLSCAASGFTFSNYAMHWVRQAPGKGLEWVAVILYDGRNKLYADSVKGRFTISRDNSKNTLFLQMNSLRAEDTAVYYCARDEAMVGITTLFDYWGQGTLVTVSS chain 2: DIQMTQSPSSLSASVGDRVTITCRASQGIRNDLNWYQHKPGKAPKLLIYAASNLQSGVPSRFSGSGSGTDFTLTISSLQPEDFATYYCQQSYSTPPWTFGQGTKVEIK | > 10 | > 10 | > 10 | > 10 | > 10 | > 10 | 3.45 |
| BD56-1667 (protein) chain 1: QVHLVQSGAEVKRPGSSVKVSCKASGGTFSSFGISWVRQAPGQGLEWMGRIIPIIGVPSYAQKFQGRVTITADKSTTTAYMELSSLRSEDTAVYYCARDVGYSGYGATAWFDPWGQGTLVTVSS chain 2: QSVLTQPPSVSGAPGQRVTISCTGSNSNIGAGYDVHWYQQLPGTAPKLLIYRNNNRPSGVPDRFSGSKSGTSASLAITGLHSDDEADYYCQSYDSSLSDSVFGRGTKLTVL | 0.0526 | 0.0759 | 0.0679 | 2.09 | > 10 | 2.01 | 0.646 |
| BD56-1669 (protein) chain 1: EVQLLESGGGLVQPGGSLRLSCAASGFSFSSYAMNWVRQAPGKGLQWVSVIYSGGSSTSYTDSVKGRFTIARDDSKNTLFLQMNRLRAEDTAVYYCTKEASYCTSTRCHPSEYFQHWGQGTLVTVSS chain 2: SFVLTQPPSVSVAPGKTARITCGGDSIASKNVHWYQQKPGQAPVLVVYDDSDRPSGIPERFSGSNSGNTATLTISRVEPGDEADYYCQVWDGSSDHPYVFGSGTKVTVL | > 10 | > 10 | > 10 | > 10 | > 10 | > 10 | 7.39 |
| BD56-1671 (protein) chain 1: EVHLVESGGGLVQPGGSLRLTCAASGFTFSEYDIHWVRQPTGKGLEWVSAIGTTGDTYYEDSVKGRFTISRENAKKSLFLQMNNLKAGDTAVYYCARGGSGFHWYFDVWGRGTLVTVSS chain 2: DIQMTQSPFSLSASVGDRVTITCRASQTIGRYLNWYQQKPGKAPELLIYAASSLQSGVPSRFSGSGSGTDFTLTISSLQPEDFATYYCQQSYVMPPPTFGQGTKVEIK | > 10 | > 10 | > 10 | > 10 | > 10 | > 10 | 4.99 |
| BD56-1683 (protein) chain 1: EVQLVESGGGLVQPGGSLRLSCAASGFTFRNYDMHWVRQLTGKGLEWVSTIGTAGDSYYPDSVRGRFTISRENARNSLYLQIDRLRAGDTAVYYCARGGEGYRFGSWYFDVWGRGTLVTVSS chain 2: DIQMTQSPSSLSASVGDRVTITCRASQSISNFLNWYQQKPGKAPKLLIYGASNLQTGVPSRFSGSGSGTDFTLTISSLQPEDFATYYCQQCYSTDITFGQGTRLEIK | > 10 | > 10 | > 10 | > 10 | > 10 | > 10 | > 10 |
| BD56-1690 (protein) chain 1: QVQLVQSGAEVKKPGSSVKVSCKASGGTFSSYTISWVRQAPGQGLEWMGWIIPILNIPNYAQKFQGRVTLTADKSTSTAYLEVISLRSEDTAVYFCALQRGYSGYGSVSYFENWGQGTLVTVSS chain 2: QSALTQPPSVSGAPGQRVTISCTGSNSNIGAGYDVHWYQQLPGIAPKLLIYGNSNRPSGVPDRVSGSKSGTSASLAITGLQAEDEADYYCQSYDSSLGGDVVFGGGTKLTVL | 0.121 | 0.0814 | 0.15 | > 10 | > 10 | > 10 | 0.198 |
